Results: PMC7587441, “Plasmodium falciparum Apicomplexan-Specific Glucosamine-6-Phosphate N-Acetyltransferase Is Key for Amino Sugar Metabolism and Asexual Blood Stage Development” (mBio, 2020)

The substances below were run on CC(=O)SCCNC(=O)CCNC(=O)[C@H](O)C(C)(C)COP(=O)(O)OP(=O)(O)OC[C@H]1O[C@@H](n2cnc3c(N)ncnc32)[C@H](O)[C@@H]1OP(=O)(O)O (assay: purified protein). Details: 2000 μM GlcN6P fixed, 25 mM Tris-HCl, 150 mM NaCl, pH 7.2, room temperature.
“CpGNA1 (Cryptosporidium parvum Iowa II; T117A)” was tested, and the Km was 33.41 ± 11.82 µM.
“CpGNA1 (Cryptosporidium parvum Iowa II; N90A)” gave a Km of 252.4 ± 44.43 µM.
“CpGNA1 (Cryptosporidium parvum Iowa II; E119A)” showed a Km of 170.4 ± 25.06 µM.
“CpGNA1 (Cryptosporidium parvum Iowa II; H81A)” gave a Km of 88.9 ± 10.98 µM.
Work on “CpGNA1 (Cryptosporidium parvum Iowa II; I122G)” yielded a Km of 309.2 ± 54.94 µM.
